Our source for the stoichiometry N values is PMC4514760, “A Chimeric HIV-1 gp120 Fused with Vaccinia Virus 14K (A27) Protein as an HIV Immunogen” (2015).

Assay [1] has as its target HIV-1 gp120-14K protein purified from CHO-K1 cells (HIV-1 (clade B, isolate BX08) | vaccinia virus) (UniProt P11258). Briefly: negative-stain electron microscopy.
The target is the same in assay [2]. In words: native gel or EMSA. Background: In EMSA bound probe runs differently from free probe, usually more slowly.

One may read the stoichiometry N as the number of molecules, sites or subunits per partner or assembly. With “HIV-1 gp120-14K protein purified from CHO-K1 cells (from UniProt P11258 29-110)”, the stoichiometry N in assay [1] and in assay [2] was 3 each time.
